Values of other authors, collected in patent publication US20110086877A1 (priority 2005, published 2011).
Read-outs that look alike come from different tables or passages of the source.

Amino acid sequences for entries named in this document (tags omitted). Residues count along the entry.
UniProt P0DPI0, 2-448 limits assumed: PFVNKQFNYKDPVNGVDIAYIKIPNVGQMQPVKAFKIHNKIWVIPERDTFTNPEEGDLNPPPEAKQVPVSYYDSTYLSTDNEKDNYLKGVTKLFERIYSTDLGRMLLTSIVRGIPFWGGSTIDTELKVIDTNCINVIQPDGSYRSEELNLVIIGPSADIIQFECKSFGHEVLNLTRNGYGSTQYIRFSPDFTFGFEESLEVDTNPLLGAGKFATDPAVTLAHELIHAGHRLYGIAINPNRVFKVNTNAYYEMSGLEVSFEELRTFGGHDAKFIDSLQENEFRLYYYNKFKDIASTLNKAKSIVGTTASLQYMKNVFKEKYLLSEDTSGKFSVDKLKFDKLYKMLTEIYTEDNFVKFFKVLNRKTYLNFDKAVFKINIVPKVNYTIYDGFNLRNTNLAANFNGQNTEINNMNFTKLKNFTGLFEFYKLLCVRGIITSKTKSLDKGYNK

Molecular target: BoNT/A LC (Clostridium botulinum, UniProt P0DPI0)
Conditions: cited from earlier work

Q: With “2-mercapto-3-phenylpropionyl-RATKML [mpp-RATKML]” as the substance, how does the Ki (read-out: Ki (printed as "1")) read?
A: Its Ki is 330 nM.

Q: And the Ki (read-out: Ki)?
A: The Ki was 300 nM.
